Pooled drug test results. Numbers come from NIAID ChemDB, via PubChem.

Shared fields: host cell toxicity; cells: H9; read-out: CC50

Blank or dashed fields: not listed here. Conditions beyond the fields shown may differ between rows. CCn: concentration that lowers growth or viability of the cells by n%.

{"smiles": "CC(=O)OC[C@]12[C@H](OC(C)=O)[C@H](OC(C)=O)[C@@H]3[C@@H](OC(C)=O)[C@@]14O[C@@]3(C)COC(=O)c1cccnc1[C@@H](C)[C@H](C)C(=O)O[C@@H]([C@H](OC(=O)c1ccccc1)[C@@H]2OC(C)=O)C4(C)O", "value": ">100 µg/mL"}
{"smiles": "CCOC(=O)c1cc(C(=O)c2ccccc2)n2ccc(C(=O)NCc3ccc4ccccc4c3)cc12", "read by": "MTT", "value": "250.5 µM"}
{"smiles": "N.O=S(=O)(NCc1ccccc1)c1ccc(F)cc1F", "read by": "ATP", "value": ">20 µM"}
{"smiles": "CC(CC(=O)O)CC(=O)O[C@H]1CC[C@]2(C)[C@H]3CC[C@@H]4[C@@H]5CC(C)(C)CC[C@]5(C(=O)O)CC[C@@]4(C)[C@]3(C)CC[C@H]2C1(C)C", "read by": "cell count", "value": "12.3 µg/mL"}
{"smiles": "CCN(CC)CCNc1nc(NCCCNC(=O)c2cccc(C(=O)NCCCNc3nc4c(c(NCCN(CC)CC)n3)CC=CC4)c2)nc2c1CC=CC2", "value": ">50 µM"}
{"smiles": "CCn1ccc(=O)c2cnc(-c3ccncc3)nc21", "value": "50 µM"}
{"smiles": "CC1(C)Oc2ccc3ccc(=O)oc3c2[C@@H](OC(=O)C23CCC(C)(C(=O)O2)C3(C)C)[C@@H]1OC(=O)C12CCC(C)(C(=O)O1)C2(C)C", "value": ">32 µM"}
{"smiles": "Cc1cn([C@H]2C[C@H](F)[C@@H](CO)O2)c(=O)[nH]c1=O", "value": "5.7 µM"}
{"smiles": "CC1(C)CC[C@]2(C(=O)O)CC[C@]3(C)[C@H](CC[C@@H]4[C@@]5(C)CC[C@H](OC(=O)CCCC(=O)O)C(C)(C)[C@@H]5CC[C@]43C)[C@@H]2C1", "read by": "cell count", "value": "12.9 µg/mL"}
{"smiles": "C=C(CC[C@@H](C)[C@H]1CC=C2C3=C([C@@H](O)[C@H](OC(C)=O)[C@@]21C)[C@@]1(C)C[C@@H](O)[C@H](OC(=O)CCC(=O)O)C(C)(C)[C@@H]1CC3)C(C)C", "read by": "MTT", "value": "<12.5 µM"}
{"smiles": "CCn1ccc(=O)c2ccc(-c3ccncc3)nc21", "value": "27 µM"}
{"smiles": "O=c1oc(-c2ccc(OCc3ccccn3)cc2)cc(O)c1SCCc1ccccc1", "value": "54.7 µM"}
{"smiles": "O=C(Nc1cccc2cccnc12)c1ccc(F)cc1F", "read by": "ATP", "value": "48 µM"}
{"smiles": "CCOC(=O)c1cc(C(=O)c2ccccc2)n2ccc(C(=O)NCc3ccccc3)cc12", "read by": "MTT", "value": "91.4 µM"}
{"smiles": "O=[N+]([O-])c1cccc(S(=O)(=O)Nc2cccc3cccnc23)c1", "read by": "ATP", "value": ">20 µM"}
{"smiles": "Nc1nc2c(ncn2[C@H]2CC[C@@H](CO)O2)c(=O)o1", "value": ">30 µg/mL"}
{"smiles": "CC(=O)OC[C@]12[C@H](OC(C)=O)[C@H](OC(=O)c3cccnc3)[C@@H]3[C@@H](OC(=O)c4ccoc4)[C@@]14O[C@@]3(C)COC(=O)c1cccnc1[C@@H](C)[C@H](C)C(=O)O[C@@H]([C@H](OC(C)=O)[C@@H]2OC(C)=O)C4(C)O", "value": "1.95 µg/mL"}
{"smiles": "CCCn1ccc(=O)c2cnc(-c3ccncc3)nc21", "value": "30 µM"}
{"smiles": "CCOC(=O)c1cc(C(=O)c2ccc([N+](=O)[O-])cc2)n2ccc(C(=O)NCc3ccccn3)cc12", "read by": "MTT", "value": "99.4 µM"}
{"smiles": "CCN(CC)CCNc1ccnc(NCCCCCCNC(=O)c2ccc(C(=O)NCCCCCCNc3nccc(NCCN(CC)CC)n3)cc2)n1", "value": ">50 µM"}
{"smiles": "O=C(/C=C/c1ccc(O)c2c1[C@H](C(=O)O)[C@@H](c1ccc(O)c(O)c1)O2)O[C@H](Cc1ccc(O)c(O)c1)C(=O)O", "read by": "MTT", "value": ">297 µM"}
{"smiles": "C#C[C@@]1(CO)C=C[C@H](n2cc(C)c(=O)[nH]c2=O)O1", "read by": "cell count", "value": ">50 µM"}
{"smiles": "CC1(C)Oc2ccc3cc(CC#N)c(=O)oc3c2[C@@H](OC(=O)C23CCC(C)(C(=O)O2)C3(C)C)[C@H]1OC(=O)C12CCC(C)(C(=O)O1)C2(C)C", "read by": "XTT", "value": ">37.82 µM"}
{"smiles": "O=Cc1cc(OCc2ccccc2)c(OCc2ccccc2)c(OCc2ccccc2)c1-c1c(C=O)cc(OCc2ccccc2)c(OCc2ccccc2)c1OCc1ccccc1", "value": "70 µM"}
{"smiles": "CCCCn1cc(N)c(=O)c2cnc(-c3ccncc3)nc21", "value": ">50 µM"}
{"smiles": "CCOC(=O)c1cc(C(=O)c2ccc(N)cc2)n2ccc(C(=O)NCc3ccccn3)cc12", "read by": "MTT", "value": "159.5 µM"}
{"smiles": "C=C(COC(=O)CC1(CC(=O)O)CCCC1)[C@@H]1CC[C@]2(COC(=O)CC3(CC(=O)O)CCCC3)CC[C@]3(C)[C@H](CC[C@@H]4[C@@]5(C)CC[C@H](OC(=O)CC6(CC(=O)O)CCCC6)C(C)(C)[C@@H]5CC[C@]43C)[C@@H]12", "value": "6.99 µM"}
{"smiles": "Cc1ccc(S(=O)(=O)Nc2cccc3cccnc23)cc1", "read by": "ATP", "value": ">20 µM"}
{"smiles": "C=C(C)[C@@H]1CC[C@]2(C(=O)O)CC[C@]3(C)[C@H](CC[C@@H]4[C@@]5(C)CC[C@H](OC(=O)COCC(=O)O)C(C)(C)[C@@H]5CC[C@]43C)[C@@H]12", "value": "11.7 µM"}
{"smiles": "COc1cc2c(c3oc(=O)c(C)c(C)c13)[C@@H](OC(=O)C13CCC(C)(C(=O)O1)C3(C)C)[C@@H](OC(=O)C13CCC(C)(C(=O)O1)C3(C)C)C(C)(C)O2", "read by": "XTT", "value": ">36.76 µM"}
{"smiles": "CCN(CC)CCNc1ccnc(NCCCNC(=O)c2ccc(C(=O)NCCCNc3nccc(NCCN(CC)CC)n3)cc2)n1", "value": ">50 µM"}
{"smiles": "CCc1cc(CCc2nc3ccccc3o2)c(=O)[nH]c1C", "value": ">0.06 µM"}
{"smiles": "COc1ccc([C@H]2c3c(cc4c(c3OC)OCO4)C[C@H]3CSC[C@@H]32)cc1OCc1ccccc1", "value": "840 µM"}
{"smiles": "Cc1c(C[N+](=O)[O-])c(=O)oc2c3c(ccc12)OC(C)(C)[C@H](OC(=O)C12CCC(C)(C(=O)O1)C2(C)C)[C@@H]3OC(=O)C12CCC(C)(C(=O)O1)C2(C)C", "read by": "XTT", "value": ">21.58 µM"}
{"smiles": "CCN(CC)CCNc1nc(NCCCCCCNC(=O)c2ccc(C(=O)NCCCCCCNc3nc4c(c(NCCN(CC)CC)n3)CC=CC4)cc2)nc2c1CC=CC2", "value": "1.5 µM"}
{"smiles": "CCOC(=O)c1cc(C(=O)c2ccccc2N)n2ccc(C(=O)NCc3ccccn3)cc12", "read by": "MTT", "value": "247.5 µM"}
{"smiles": "CC(C)CC(=O)N[C@H](C(=O)N[C@H](C(=O)N[C@@H](CC(C)C)[C@@H](O)CC(=O)N[C@@H](C)C(=O)N[C@@H](CC(C)C)[C@@H](O)CC(=O)O)C(C)C)C(C)C", "value": ">1000 µM"}
{"smiles": "C=C(CC[C@@H](C)[C@H]1CCC2C3=C([C@@H](O)[C@H](OC(C)=O)[C@@]21C)[C@@]1(C)C[C@@H](O)[C@H](OS(=O)(=O)O)C(C)(C)[C@@H]1CC3)C(C)C", "read by": "MTT", "value": "<50 µM"}
{"smiles": "Cc1cc(=O)c2c(O)c3c(O)cc(O)c4c5c(O)cc(O)c6c(O)c7c(=O)cc(C)c8c1c2c(c34)c(c65)c78", "value": "<2 µg/mL"}
{"smiles": "CC1(C)CC[C@]2(C(=O)O)CC[C@]3(C)[C@H](CC[C@@H]4[C@@]5(C)CC[C@H](OC(=O)CC(C)(C)C(=O)O)C(C)(C)[C@@H]5CC[C@]43C)[C@@H]2C1", "read by": "cell count", "value": "13.7 µg/mL"}
{"smiles": "CC(S)C(=O)NCC(=O)O", "value": "~1000 µg/mL"}
{"smiles": "COc1cc([C@H]2c3c(cc(OC)c(OC)c3OC)C[C@H]3CSC[C@@H]32)cc(OC)c1OC", "value": "24.5 µM"}
{"smiles": "C=C(COC(C)=O)[C@@H]1CC[C@]2(COC(C)=O)CC[C@]3(C)[C@H](CC[C@@H]4[C@@]5(C)CC[C@H](OC(C)=O)C(C)(C)[C@@H]5CC[C@]43C)[C@@H]12", "value": "25 µM"}
{"smiles": "C[C@H](Cc1ccc(OC(=O)CN(C)C)c(OC(=O)CN(C)C)c1)[C@@H](C)Cc1ccc(OC(=O)CN(C)C)c(OC(=O)CN(C)C)c1", "value": ">100 µM"}
{"smiles": "CC(C)CCC[C@@H](C)[C@H]1CCC2C3CCC4C[C@@H](O[C@@H]5O[C@H](COS(=O)(=O)[O-])[C@@H](O[C@H]6O[C@H](COS(=O)(=O)[O-])[C@@H](O[C@H]7O[C@H](COS(=O)(=O)[O-])[C@@H](O[C@H]8O[C@H](COS(=O)(=O)[O-])[C@@H](OS(=O)(=O)[O-])[C@H](OS(=O)(=O)[O-])[C@H]8OS(=O)(=O)[O-])[C@H](OS(=O)(=O)[O-])[C@H]7OS(=O)(=O)[O-])[C@H](OS(=O)(=O)[O-])[C@H]6OS(=O)(=O)[O-])[C@H](OS(=O)(=O)[O-])[C@H]5OS(=O)(=O)[O-])CC[C@]4(C)C3CC[C@@]21C", "value": "550 µg/mL"}
{"smiles": "CC(=O)O[C@@H]1[C@@H]2[C@@H](OC(C)=O)[C@@]34O[C@@]2(C)COC(=O)c2cnccc2[C@@H](C)[C@@](C)(O)C(=O)O[C@@H]([C@H](OC(C)=O)[C@H](OC(C)=O)[C@@]3(COC(=O)c2ccoc2)[C@@H]1OC(C)=O)C4(C)O", "value": ">100 µg/mL"}
{"smiles": "CCOC(=O)c1c(Br)c(OC)c2c(c1-c1c3c(c(OC)c(Br)c1C(=O)O)OCO3)OCO2", "value": ">100 µg/mL"}
{"smiles": "CCc1cn([C@@H]2C[C@H](F)[C@@H](CO)O2)c(=O)[nH]c1=O", "value": "400 µM"}
{"smiles": "CC1(C)CC[C@]2(C(=O)O)CC[C@]3(C)C(=CC[C@@H]4[C@@]5(C)CC[C@H](O)C(C)(C)[C@@H]5CC[C@]43C)[C@@H]2C1", "read by": "cell count", "value": "21.8 µg/mL"}
{"smiles": "COc1cc(=O)oc2c3c(ccc12)OC(C)(C)[C@H](OC(=O)C12CCC(C)(C(=O)O1)C2(C)C)[C@@H]3OC(=O)C12CCC(C)(C(=O)O1)C2(C)C", "value": ">153 µM"}
{"smiles": "CCN(CC)CCNc1ccnc(NCCCNC(=O)CCC(=O)NCCCNc2nccc(NCCN(CC)CC)n2)n1", "value": ">50 µM"}
{"smiles": "CC1(C)CC=C(c2cn(-c3nccc(C(=O)NC4CCC(N5CC6CCC(C5)O6)CC4)n3)c3ccc(F)c([C@H](OC(C)(C)C)C(=O)O)c23)CC1", "read by": "luminescence", "value": "6.823 µM"}
{"smiles": "COc1cnc2ccc(=O)n3c4ccccc4c1c23", "value": ">100 µg/mL"}
{"smiles": "CC(=O)O[C@H]1[C@H](O)C2=C(CC[C@H]3C(C)(C)[C@@H](OS(=O)(=O)O)[C@H](OC(=O)CCCCCCCCCCCCCCCO)C[C@]23C)C2CC[C@H]([C@H](C)CCC3(C(C)(C)O)CO3)[C@]21C", "read by": "MTT", "value": "<50 µM"}
{"smiles": "OCc1cc(OCc2ccccc2)c(OCc2ccccc2)c(O)c1-c1c(CO)cc(OCc2ccccc2)c(OCc2ccccc2)c1O", "value": "13 µM"}
{"smiles": "COc1cc2c(cc1Cc1cccc(Cl)c1F)c(=O)c(C(=O)O)cn2[C@H](CO)C(C)C", "read by": "luminescence", "value": "4.818 µM"}
{"smiles": "Nc1nc2c(ncn2[C@H]2C=C[C@@H](CO)O2)c(=O)o1", "value": ">30 µg/mL"}
{"smiles": "CCNc1cccnc1N1CCN(Cc2cc(C)c(OC)c(C)c2)CC1", "value": "10 µM"}
{"smiles": "COc1c(OCc2ccccc2)c(OCc2ccccc2)cc(CO)c1-c1c(CO)cc(OCc2ccccc2)c(OCc2ccccc2)c1OC", "value": ">100 µg/mL"}
{"smiles": "CCN(CC)CCNc1nc(NCCCNC(=O)c2ccc(C(=O)NCCCNc3nc4c(c(NCCN(CC)CC)n3)CC=CC4)cc2)nc2c1CC=CC2", "value": "50 µM"}
{"smiles": "COc1cc(C=O)c(-c2c(C=O)cc(OC)c(OC)c2OC)c(OC)c1OC", "value": "10 µM"}

For reference, 5 entries again:

smiles,read by,value
O=C(/C=C/c1ccc(O)c2c1[C@H](C(=O)O)[C@@H](c1ccc(O)c(O)c1)O2)O[C@H](Cc1ccc(O)c(O)c1)C(=O)O,MTT,>297 µM
CCCCn1cc(N)c(=O)c2cnc(-c3ccncc3)nc21,,>50 µM
COc1cc2c(c3oc(=O)c(C)c(C)c13)[C@@H](OC(=O)C13CCC(C)(C(=O)O1)C3(C)C)[C@@H](OC(=O)C13CCC(C)(C(=O)O1)C3(C)C)C(C)(C)O2,XTT,>36.76 µM
CC(=O)O[C@@H]1[C@@H]2[C@@H](OC(C)=O)[C@@]34O[C@@]2(C)COC(=O)c2cnccc2[C@@H](C)[C@@](C)(O)C(=O)O[C@@H]([C@H](OC(C)=O)[C@H](OC(C)=O)[C@@]3(COC(=O)c2ccoc2)[C@@H]1OC(C)=O)C4(C)O,,>100 µg/mL
CC1(C)Oc2ccc3cc(CC#N)c(=O)oc3c2[C@@H](OC(=O)C23CCC(C)(C(=O)O2)C3(C)C)[C@H]1OC(=O)C12CCC(C)(C(=O)O1)C2(C)C,XTT,>37.82 µM